pKd: −log10 of the molar value.
Target: 35022 Fab (human)
Test: BLI

Chains of the proteins cited; added tags and fusions are not shown. A line that says so, or that is headed by a name, gives the form on record, which may keep a tag or linker.
35022 Fab (human), light, as listed by the source, chain 2 of 2: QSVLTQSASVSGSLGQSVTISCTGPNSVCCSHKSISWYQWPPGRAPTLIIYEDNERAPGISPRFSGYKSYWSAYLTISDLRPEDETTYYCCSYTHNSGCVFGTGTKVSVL

“EDC cross-linked ConM SOSIP soluble gp140 Env trimer (GMP) (complex)” gave a pKd of 5.70 and a koff of 8.3e-05 s⁻¹.

Reference: article PMC10345191
